Pooled drug test results. Numbers come from NIAID ChemDB, via PubChem.

Shared fields: host cell toxicity; cell line: JM; read-out: CC50

CCn: concentration that lowers growth or viability of the cells by n%.

structure,method,result
Nc1ccn([C@@H]2O[C@H](CO)C[C@@H]2F)c(=O)n1,MTT,5 µg/mL
Cc1cn([C@H]2C[C@H](N=[N+]=[N-])[C@@H](CO)O2)c(=O)[nH]c1=O,-,>1000 µM
CC(C)(C)NC(=O)[C@@H]1C[C@@H]2CCCC[C@@H]2CN1C[C@@H](O)[C@H](Cc1ccccc1)NC(=O)[C@H](CC(N)=O)NC(=O)c1ccc2ccccc2n1,-,>10 µM
COC(=O)C(C)NP(=O)(OC[C@H]1O[C@@H](n2cc(C)c(=O)[nH]c2=O)C[C@@H]1N=[N+]=[N-])Oc1ccc([N+](=O)[O-])cc1,-,150 µM
Cc1cn([C@H]2C[C@H](N=[N+]=[N-])[C@@H](COP(=O)(O)OCc3ccc(C(=O)OC(C)C)cc3)O2)c(=O)[nH]c1=O,MTT,10 µM
Cc1cn([C@H]2C[C@H](N=[N+]=[N-])[C@@H](COP(=O)(Oc3ccc(C(F)(F)F)cc3)Oc3ccc(C(F)(F)F)cc3)O2)c(=O)[nH]c1=O,-,100 µM
Nc1ncc2ncn([C@H]3CC[C@@H](CO)O3)c2n1,-,>1000 µM
CC(C)(C)OC(=O)[C@@H]1CCCN1C[C@H](O)[C@H](Cc1ccccc1)NC(=O)[C@H](CC(N)=O)NC(=O)OCc1ccccc1,MTT,500 µg/mL
Nc1ccn([C@H]2CC[C@@H](CO)O2)c(=O)n1,-,28 µM
Nc1ccn([C@H]2CC[C@@H](CO)O2)c(=O)n1,-,7 µM
Cc1cn([C@H]2C[C@H](N=[N+]=[N-])[C@@H](COP(=O)(OCc3ccccc3)OCc3ccccc3)O2)c(=O)[nH]c1=O,MTT,200 µM
O=c1ccn([C@H]2CC[C@@H](CO)O2)c(=O)[nH]1,MTT,500 µg/mL
Cc1cn([C@H]2C[C@H](N=[N+]=[N-])[C@@H](COP(=O)(Oc3ccc(C#N)cc3)Oc3ccc(C#N)cc3)O2)c(=O)[nH]c1=O,-,400 µM
CC(C)(C)OC(=O)[C@@H]1CCCN1C[C@@H](O)[C@H](Cc1ccccc1)NC(=O)[C@H](CC(N)=O)NC(=O)OCc1ccccc1,MTT,250 µg/mL
COC(=O)[C@H](C)NP(=O)(OC[C@H]1O[C@@H](n2cc(C)c(=O)[nH]c2=O)C[C@@H]1N=[N+]=[N-])OCC(Cl)(Cl)Cl,-,50 µM
COc1ccc(Cc2nccc3cc(OC)c(OC)cc23)cc1OC,MTT,2 µg/mL
Cc1cn([C@H]2C[C@H](N=[N+]=[N-])[C@@H](COP(=O)(OCc3ccc(C(=O)OC(C)(C)C)cc3)OCc3ccc(C(=O)OC(C)(C)C)cc3)O2)c(=O)[nH]c1=O,MTT,150 µM
O=C(O)P(=O)(O)O,MTT,1000 µg/mL
CCOP(=O)(N[C@@H](C)C(=O)OC)OC[C@H]1O[C@@H](n2cc(C)c(=O)[nH]c2=O)C[C@@H]1N=[N+]=[N-],-,200 µM

Again, the opening 2 rows:

{"structure": "Nc1ccn([C@@H]2O[C@H](CO)C[C@@H]2F)c(=O)n1", "method": "MTT", "result": "5 µg/mL"}
{"structure": "Cc1cn([C@H]2C[C@H](N=[N+]=[N-])[C@@H](CO)O2)c(=O)[nH]c1=O", "result": ">1000 µM"}

Neighbouring rows are from separate reports. Blank or dashed fields: not listed here.